B1: UreB (natural protein, Klebsiella aerogenes, UniProt P18315 1-106, looked up)
chain: MIPGEYHVKPGQIALNTGRATCRVVVENHGDRPIQVGSHYHFAEVNPALKFDRQQAAGYRLNIPAGTAVRFEPGQKREVELVAFAGHRAVFGFRGEVMGPLEVNDE
B2: UreA (natural protein, Klebsiella aerogenes, UniProt P18316 1-100, looked up)
chain: MELTPREKDKLLLFTAALVAERRLARGLKLNYPESVALISAFIMEGARDGKSVASLMEEGRHVLTREQVMEGVPEMIPDIQVEATFPDGSKLVTVHNPII

Legend:
[1] = biological target: (UreAC)3 (Klebsiella aerogenes); test: SEC
[2] = biological target: UreC (Klebsiella aerogenes); test: co-purification

Binder | apparent UreA:UreB:UreC ratio of gel band intensities in peak 1 [1] | apparent UreA:UreC ratio of gel band intensities [2]
B1 | 0.5 UreB per UreC (apparent) | –
B2 | – | 0.5 UreA per UreC (apparent)
